Experimental data reported in US11723944B2 (priority 2015, dated 2023).

Chains of the proteins cited; added tags and fusions are not shown. Lines headed by an entry give the natural chain unless they say otherwise; changes in a name come on top.
UniProt P0DPI0: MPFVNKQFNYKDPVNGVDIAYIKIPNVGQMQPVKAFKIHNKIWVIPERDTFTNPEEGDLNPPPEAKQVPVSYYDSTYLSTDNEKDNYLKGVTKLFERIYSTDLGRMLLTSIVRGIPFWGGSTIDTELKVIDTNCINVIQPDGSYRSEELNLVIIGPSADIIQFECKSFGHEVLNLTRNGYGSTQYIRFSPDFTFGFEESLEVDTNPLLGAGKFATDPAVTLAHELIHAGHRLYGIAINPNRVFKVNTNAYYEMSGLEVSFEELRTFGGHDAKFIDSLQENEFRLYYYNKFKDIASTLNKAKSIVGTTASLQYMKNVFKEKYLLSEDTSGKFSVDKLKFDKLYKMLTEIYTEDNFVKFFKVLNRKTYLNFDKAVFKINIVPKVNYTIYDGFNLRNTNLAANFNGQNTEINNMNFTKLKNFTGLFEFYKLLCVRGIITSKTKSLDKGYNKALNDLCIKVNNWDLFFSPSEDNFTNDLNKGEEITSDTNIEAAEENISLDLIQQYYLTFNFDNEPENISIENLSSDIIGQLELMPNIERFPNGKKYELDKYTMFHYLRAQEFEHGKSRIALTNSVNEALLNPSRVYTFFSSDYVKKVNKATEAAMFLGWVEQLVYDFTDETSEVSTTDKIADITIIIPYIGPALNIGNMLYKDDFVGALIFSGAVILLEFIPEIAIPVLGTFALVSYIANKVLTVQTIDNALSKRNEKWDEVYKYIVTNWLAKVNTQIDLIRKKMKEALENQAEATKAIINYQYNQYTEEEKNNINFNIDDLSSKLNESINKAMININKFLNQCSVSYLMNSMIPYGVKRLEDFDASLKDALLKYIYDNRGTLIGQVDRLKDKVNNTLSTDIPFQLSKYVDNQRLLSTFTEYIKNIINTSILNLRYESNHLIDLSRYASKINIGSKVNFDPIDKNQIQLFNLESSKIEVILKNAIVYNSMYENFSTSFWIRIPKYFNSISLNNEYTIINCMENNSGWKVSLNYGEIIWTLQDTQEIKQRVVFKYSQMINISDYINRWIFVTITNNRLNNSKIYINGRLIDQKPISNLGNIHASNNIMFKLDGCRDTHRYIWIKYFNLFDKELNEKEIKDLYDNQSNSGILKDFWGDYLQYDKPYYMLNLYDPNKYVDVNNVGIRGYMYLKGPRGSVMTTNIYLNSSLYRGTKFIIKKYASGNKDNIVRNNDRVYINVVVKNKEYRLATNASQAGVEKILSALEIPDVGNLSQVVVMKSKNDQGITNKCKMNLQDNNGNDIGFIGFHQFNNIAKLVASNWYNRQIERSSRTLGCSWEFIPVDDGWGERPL

How the values were obtained:
BoNT/A LC = BoNT/A LC (Clostridium botulinum, UniProt P0DPI0); settings: reported peptidomimetic inhibitor from a structure-based search; cited from earlier work
hiPSC-derived neurons = assay: Cell penetration of STP-DBCO-Cy5; settings: 1 μM in neuronal media, 30 minutes, live imaging

Substance	inhibition of BoNT LC in vitro (BoNT/A LC)	cytosolic delivery of polar cargo (hiPSC-derived neurons)
Dab(Dinitrophenol)-RWT-Dab-ML	low nanomolar inhibition	–
Cy5-DBCO-Lys(N3)-pliyIrlIrGqf	–	Cy5 in the cytosol
